Results from article PMC9216602, “A Powassan virus domain III nanoparticle immunogen elicits neutralizing and protective antibodies in mice” (2022).

Assays:
[1] = target: MBP-POWV-EDIII fusion protein (Powassan virus); test: BLI
[2] = target: MBP-POWV-EDIII fusion protein (Powassan virus); test: BLI; apparent KD
[3] = target: MBP-POWV-EDIII fusion protein (Powassan virus); test: BLI; panel title printed as m65.61
[4] = target: MBP-POWV-EDIII fusion protein (Powassan virus); test: BLI; apparent KD (bivalent mAb); panel title printed as m65.61

Substance	koff [1] [s⁻¹]	Kd [2] [nM]	koff [3] [s⁻¹]	Kd [4] [nM]
mAb m158.25 (chimeric: mouse variable domains, human IgG1 constant domain) (from UniProt P01857)	0.0011			
mAb m158.26 (chimeric: mouse variable domains, human IgG1 constant domain) (from UniProt P01857)	0.00089	15		
mAb m158.36 (chimeric: mouse variable domains, human IgG1 constant domain) (from UniProt P01857)	0.00064	3		
mAb m61.65 (chimeric: mouse variable domains, human IgG1 constant domain) (from UniProt P01857)			0.00086	3.2
